Results of unrelated studies side by side (data: NIAID ChemDB).

Common to all: toxicity to cultured cells; cells: VERO; endpoint: CC50

CCn is the concentration with n% toxicity to the cells. Lines come from different laboratories, so protocols vary. An empty or dashed field is not shown.

| SMILES | method | result |
|---|---|---|
| CCCOC(=O)c1cc(COc2cc(C(F)(F)F)nc3c(C(F)(F)F)cccc23)on1 | - | >128 µM |
| CCCCCCCCCCCCCCC[C@H](O)CCCC[C@H]1CC=CC(=O)O1 | - | 4.6 µg/mL |
| Clc1ccc(/C(Cn2ccnc2)=N/OCc2ccccc2)c(Cl)c1 | - | 2 µg/mL |
| O=C(Cc1ccccc1Nc1c(Cl)cccc1Cl)N/N=C(\c1ccccc1)c1ccc(Br)cc1 | - | >18.07 µM |
| CCCCC[C@@]1(C(=O)CCC)CC[C@@]2(c3ccccc3)ON12 | - | >50 µg/mL |
| CC#Cc1cn([C@@H]2O[C@H](CO)[C@@H](O)[C@@H]2O)c(=O)[nH]c1=O | - | >500 µM |
| Cc1ccc(N2C(=O)CCC2(C#N)c2ccc(OC(C)C)cc2)cc1 | absorbance | 46.5 µM |
| CC[C@]1(C)C[C@@H](OC(=O)CSC(C)(C)CNC(=O)[C@H](N)CC(C)C)[C@]2(C)[C@H](C)CC[C@]3(CCC(=O)[C@H]32)[C@@H](C)[C@@H]1O | MTT | 5.26 µg/mL |
| NNC(=O)c1cc(COc2cc(C(F)(F)F)nc3c(C(F)(F)F)cccc23)on1 | - | >128 µM |
| O=c1[nH]c(=O)n([C@H]2O[C@@H](CO)[C@H](O)C2(F)F)cc1Cl | - | >100 µM |
| C=C(C)[C@@H]1CC[C@]2(C(=O)O)CC[C@]3(C)[C@H](CC[C@@H]4[C@@]5(C)CCC(=O)C(C)(C)[C@@H]5CC[C@]43C)[C@@H]12 | - | 16.2 µg/mL |
| CCOC(=O)c1cc(COc2ccc3ccc(C(F)(F)F)nc3c2)on1 | - | >128 µM |
| CN(C)c1ccc(/C=N/NC(=O)Cc2ccccc2Nc2c(Cl)cccc2Cl)cc1 | - | >22.65 µM |
| CC[C@]1(C)C[C@@H](OC(=O)CSC(C)(C)CNC(=O)[C@H](N)CC(C)C)[C@]2(C)[C@H](C)CC[C@]3(CC/C(=N\OC)[C@H]32)[C@@H](C)[C@@H]1O | MTT | 5 µg/mL |
| Cc1cc(NC(=O)NC2C3CC4CC(C3)CC2C4)no1 | MTT | >48 µg/mL |
| CCOc1ccc(C2(C#N)CC(=O)N2Cc2ccccc2)cc1 | absorbance | 6.2 µM |
| CCCCC1C(=O)N(c2ccccc2)N(c2ccc(O)cc2)C1=O | MTS | >200 µM |
| O=c1[nH]c(=O)n([C@H]2C[C@H](O)[C@@H](CO)S2)cc1C(F)=C(Cl)Cl | - | >500 µM |
| O=c1[nH]c(=O)n([C@H]2O[C@@H](CO)[C@H](O)C2(F)F)cc1I | - | >100 µM |
| Nc1nc2c(ncn2[C@@H]2C[C@@H](F)[C@H](CO)O2)c(=O)[nH]1 | - | >100 µM |
| NCC1(c2ccc(OCc3ccccc3)cc2)CCC(=O)N1Cc1ccccc1 | absorbance | 13.1 µM |
| O=C(O)c1c2n(c3cc(N4CCN(C(=O)c5ccco5)CC4)c(F)cc3c1=O)CS2 | MTT | >146 µM |
| Cc1cn([C@@H]2O[C@@H](CO)[C@H](O)C2(F)F)c(=O)[nH]c1=O | - | >100 µM |
| C/C(=C\CCC1(C)C=Cc2cc(O)cc(C)c2O1)CC/C=C(\C)CC[C@@H](C)C(C)(C)O | - | 17 µM |
| CCOC(=O)c1cc(COc2cc(C(F)(F)F)c3nc(C(F)(F)F)cc(OCc4cc(C(=O)OCC)no4)c3c2)on1 | - | >128 µM |
| Clc1ccc(/C(Cn2ccnc2)=N/OCc2cccc3ccccc23)c(Cl)c1 | - | 8 µg/mL |
| O=c1ccn([C@@H]2C[C@@H](F)[C@H](CO)O2)c(=O)[nH]1 | - | >100 µM |
| Clc1ccc(/C(Cn2ccnc2)=N/OCc2ccc(-c3ccccc3)cc2)c(Cl)c1 | - | 3 µg/mL |
| O=c1[nH]c(=O)n([C@H]2C[C@H](O)[C@@H](CO)S2)cc1C(F)(F)F | - | >500 µM |
| COc1ccc(C(=O)/C=C/c2cc3ccc(Cl)c(C)c3nc2Cl)cc1 | MTT | 31.9 µM |
| CC1CN(c2cc3c(cc2[N+](=O)[O-])c(=O)c(C(=O)O)c2n3CS2)CC(C)O1 | MTT | 79.84 µM |
| CCn1cc(C(=O)O)c(=O)c2cc(F)c(N3CCN(C(=O)Cc4ccccc4Nc4c(Cl)cccc4Cl)C(C)C3)c(F)c21 | - | >15.88 µM |
| CCCC(=O)[C@@]1(CCC2OCCO2)CC[C@@]2(c3ccccc3)ON12 | - | >50 µg/mL |
| O=C(Cc1ccccc1Nc1c(Cl)cccc1Cl)N/N=C/c1ccccc1[N+](=O)[O-] | - | >22.62 µM |
| Cc1c(Cl)ccc2cc(/C=C/c3csc(Cl)c3)c(Cl)nc12 | MTT | 26.5 µM |
| CCCC(=O)[C@]1(CCC2OCCO2)CC[C@@]2(c3ccccc3)ON12 | - | >50 µg/mL |
| CN[C@@H]1[C@H](O[C@H]2[C@H](O[C@H]3[C@H](O)[C@@H](O)[C@H](N=C(N)N)[C@@H](O)[C@@H]3N=C(N)N)O[C@@H](C)[C@]2(O)C=O)O[C@@H](CO)[C@H](O)[C@H]1O | - | >64 µg/mL |
| O=c1[nH]cnc2c1ncn2[C@@H]1C[C@@H](F)[C@H](CO)O1 | - | >100 µM |
| C=C[C@]1(C)C[C@@H](OC(=O)CSC(C)(C)CNC(=O)[C@H](N)CC(C)C)[C@]2(C)[C@H](C)CC[C@]3(CC/C(=N\OC)[C@H]32)[C@@H](C)[C@@H]1O | MTT | 3.13 µg/mL |
| CC(C)(C)OC(=O)NC1C2CN(c3cc4c(cc3F)c(=O)c(C(=O)O)c3n4CS3)CC21 | MTT | 140 µM |
| Cc1c(Cl)ccc2cc(/C=C/c3sccc3Br)c(Cl)nc12 | MTT | 45.04 µM |
| CCCCCCCCCCCCCCCC(=O)NS(=O)(=O)OC[C@H]1O[C@@H](n2cnc3c(N)ncnc32)[C@H](O)[C@@H]1O | MTT | 0.3 µg/mL |
| CCOC(=O)c1cc(COc2ccc([N+](=O)[O-])c(C(F)(F)F)c2)on1 | - | >128 µM |
| CCCCCCCCCCCCCCC[C@H](O)CCCC[C@H](O)C[C@H]1CC=CC(=O)O1 | - | 1.8 µg/mL |
| O=c1[nH]c(=O)n([C@H]2C[C@H](O)[C@@H](CO)S2)cc1/C=C/Cl | - | >500 µM |
| Nc1nc2c(ncn2[C@H]2O[C@@H](CO)[C@H](O)C2(F)F)c(=O)[nH]1 | - | >100 µM |
| COc1ccc(C(=O)N2CCCC2(C#N)c2ccccc2)cc1[N+](=O)[O-] | absorbance | >100 µM |
| Fc1ccc(/C(Cn2ccnc2)=N\OC/C=C/c2ccccc2)cc1 | - | 6 µg/mL |
| O=C(O)c1c2n(c3cc(N4CCSCC4)c(F)cc3c1=O)CS2 | MTT | 177 µM |
| Clc1ccc(/C(Cn2ccnc2)=N\OC/C=C/c2ccccc2)c(Cl)c1 | - | 6 µg/mL |
| CC1(C)C(OC2O[C@H](C(=O)O)[C@@H](O)[C@H](N[C@@H]3O[C@H](CO)[C@H](O)[C@H](O)[C@H]3O)[C@H]2OC2O[C@H](O)[C@@H](O)[C@H](O)[C@H]2C(=O)O)CC[C@@]2(C)C1CC[C@]1(C)C2C(=O)C=C2C3C[C@@](C)(C(=O)O)CC[C@]3(C)CC[C@]21C | - | 32 µg/mL |
| Cc1c(Cl)ccc2cc(/C=C/C(=O)c3ccc(Cl)cc3)c(Cl)nc12 | MTT | 24.73 µM |
| CC1CN(c2cc3c(cc2F)c(=O)c(C(=O)O)c2n3CS2)CC(C)O1 | MTT | >172 µM |
| N#CC1(c2ccccc2)CCCN1C(=O)c1ccccc1Br | absorbance | >100 µM |
| Cc1c(CN2CCSCC2)cc(-c2ccc(Cl)cc2)n1-c1ccccc1 | - | 4 µg/mL |
| Clc1ccc(/C(Cn2ccnc2)=N/OCc2ccc(-c3ccccc3)cc2)cc1 | - | 1.5 µg/mL |
| CCCCCCCCCCCCCCC[C@H](O)C[C@H](O)CCC[C@H]1CC=CC(=O)O1 | - | 3.02 µg/mL |
| O=c1[nH]cnc2c1ncn2[C@H]1O[C@@H](CO)[C@H](O)C1(F)F | - | >100 µM |
| O=c1[nH]c(=O)n([C@H]2C[C@H](O)[C@@H](CO)S2)cc1CCF | - | >500 µM |
| CCCCOC(=O)c1cc(COc2cc(C(F)(F)F)nc3c(C(F)(F)F)cccc23)on1 | - | 105.9 µM |
| c1ccc(CO/N=C(\Cn2ccnc2)c2ccccc2)cc1 | - | 8 µg/mL |
| C=C[C@]1(C)C[C@@H](OC(=O)CSC(C)(C)CNC[C@H](N)C(C)C)[C@]2(C)[C@H](C)CC[C@]3(CCC(O)[C@H]32)[C@@H](C)[C@@H]1O | MTT | 45.3 µg/mL |
| Fc1ccc(/C(Cn2ccnc2)=N\OCc2ccc(-c3ccccc3)cc2)cc1 | - | 6 µg/mL |
| Cc1ccc(N2C(=O)CCC2(C#N)c2ccccc2OCc2ccccc2)cc1 | absorbance | 77.9 µM |

A second listing of 9 rows from above:

| SMILES | method | result |
|---|---|---|
| O=C(Cc1ccccc1Nc1c(Cl)cccc1Cl)N/N=C(\c1ccccc1)c1ccc(Br)cc1 | - | >18.07 µM |
| C=C(C)[C@@H]1CC[C@]2(C(=O)O)CC[C@]3(C)[C@H](CC[C@@H]4[C@@]5(C)CCC(=O)C(C)(C)[C@@H]5CC[C@]43C)[C@@H]12 | - | 16.2 µg/mL |
| O=c1[nH]c(=O)n([C@H]2C[C@H](O)[C@@H](CO)S2)cc1C(F)=C(Cl)Cl | - | >500 µM |
| NNC(=O)c1cc(COc2cc(C(F)(F)F)nc3c(C(F)(F)F)cccc23)on1 | - | >128 µM |
| Cc1c(Cl)ccc2cc(/C=C/C(=O)c3ccc(Cl)cc3)c(Cl)nc12 | MTT | 24.73 µM |
| CCCC(=O)[C@@]1(CCC2OCCO2)CC[C@@]2(c3ccccc3)ON12 | - | >50 µg/mL |
| Clc1ccc(/C(Cn2ccnc2)=N/OCc2ccc(-c3ccccc3)cc2)cc1 | - | 1.5 µg/mL |
| O=c1[nH]c(=O)n([C@H]2O[C@@H](CO)[C@H](O)C2(F)F)cc1I | - | >100 µM |
| Cc1ccc(N2C(=O)CCC2(C#N)c2ccccc2OCc2ccccc2)cc1 | absorbance | 77.9 µM |